Reference: article PMC7798916 (National Science Review, 2020)

Target: SARS-CoV RBD (SARS-CoV (NC_004718.3, Tor2), UniProt P59594)
Experiment: BLI
Conditions: both partners purified

B1: HB27 (humanized monoclonal antibody, IgG) (antibody, V domains shown)
VH: VKLVESGGGLVKPGGSLRLSCAASGFTFTNYGMSWVRQAPGKRLEWVAEISSGGSYTYYPDTVTGRFTISRDNAKNTLYLQMNSLRAEDTAVYYCARFRYGGGGTVDYWGQGTLVTVSS
VL: IVLTQSPTLSLSPGERATLSCRASESVDNYGISFMNWFQQKPGQAPRLLIYAASNQGSGIPSRFSGSGSGTDFSLTISSLEPEDFAVYFCQQSKEVPRIFGQGTKVEIL
notes: also called HB27 IgG; source: CHO cell line
  binding result: no binding
